{
  "source": "paper PMC3207847",
  "about": "“Characterization of a Novel Type of HIV-1 Particle Assembly Inhibitor Using a Quantitative Luciferase-Vpr Packaging-Based Assay” (PLoS ONE, 2011)",
  "system": "HIV-1 VLP assembly and budding",
  "assay": "Electron microscopy of AcMNPV-Gag-infected Sf9 cells and released particles",
  "assay_type": "cell-based",
  "conditions": "10 µg/ml for 24 h, m ± SD",
  "protocol": "By contrast, control, untreated AcMNPV-Gag-infected Sf9 cells were decorated with VLP budding in abundance from the plasma membrane ( Fig. 8 , a; and also refer to [12], [28], [30], [32], [33], [53]).\nBaculovirus-infected Sf9 cells were harvested at 48 h pi, pelleted, fixed with 2.5% glutaraldehyde in 0.1 M phosphate buffer, pH 7.5, post-fixed with osmium tetroxide (2% in H2O) and treated with 0.5% tannic acid solution in H2O. The specimens were dehydrated and embedded in Epon (Epon-812; Fulham, Latham, NY). Ultrathin sections were stained with 2.6% alkaline lead citrate and 0.5% uranyl acetate in 50% ethanol, and post-stained with 0.5% uranyl acetate solution in H2O [12], [28], [53]. Grids were examined under a Jeol JEM-1400 electron microscope, equiped with an ORIUS™ digitalized camera (Gatan France, 78113-Grandchamp). For statistical EM analyses, a minimum of 30 grid squares containing 10 to 20 cell sections each were examined for counting VLP budding at the cell surface, or budding in intracellular vesicular compartment.",
  "data": [
    {"smiles": "C=C(C)[C@@H]1CC[C@]2(C(=O)NCCN)CC[C@]3(C)C(CCC4[C@@]5(C)CC[C@H](OC(=O)CC(C)(C)C(=O)O)C(C)(C)C5CC[C@]43C)C12", "note": "(some centres unmarked) [EP-39, ethylene diamine-conjugated DSB]", "values": [
      {"measurement": "Mean diameter of morula-like particles", "setting": "n = 14", "value": "109.1±9.2", "unit": "nm"},
      {"measurement": "Mean diameter of bead-shaped subunits (nanoparticles)", "setting": "n = 17", "value": "19.4±3.2", "unit": "nm"}
    ]}
  ]
}
